Compound potency records, mixed from different reports. Data source: NIAID ChemDB in PubChem.

All rows: growth or infection tests; organism: HIV-1; read-out: EC50

a–b is a range or a potency band. Neighbouring rows are from separate reports. ECn: concentration that inhibits the pathogen or its effect by n%. An empty or dashed field is not shown.

SMILES | cells | strain | mutations | result
c1ccc(CNCc2ccc(CN3CCCNCCNCCCNCC3)cc2)nc1 | - | IIIB | - | 0.01 µg/mL
C/C1=C/C[C@@H](/C(C)=C/c2csc(C)n2)OC(=O)C[C@H](O)C(C)(C)C(=O)[C@H](C)[C@@H](O)[C@@H](C)CCC1 | TZM-bl | LAI | - | 0.0005 µM
Nc1nc2cc3[nH]c4ccccc4c(=O)c3cc2[nH]1 | PBMC | LAV | - | >100 µM
CCCCN1C(=O)N(Cc2cccc(C(=O)Nc3ncc[nH]3)c2)[C@H](Cc2ccccc2)[C@H](O)[C@@H](O)[C@H]1Cc1ccccc1 | MT-2 | RF | - | <0.018 µM
CCCCC#CCSc1ccccc1OC(C)=O | PBL | - | - | 10 µM
C[C@@H]1O[C@@H](O[C@@H]2[C@@H](O)[C@H](OCCc3ccc(O)c(O)c3)O[C@H](CO)[C@H]2OC(=O)/C=C/c2ccc(O)c(O)c2)[C@H](O)[C@H](O)[C@H]1O | - | - | - | 13.8 µg/mL
Nc1nc(=O)n([C@H]2CC[C@@H](CO)O2)cc1F | CEM | - | - | 2 µM
Nc1cccc(CN2C(=O)N(Cc3cccc(N)c3)[C@H](Cc3ccccc3)[C@H](O)[C@@H](O)[C@H]2Cc2ccccc2)c1 | MT-2 | RF | - | <0.12 µM
COC(=O)C(C(=O)OC)=C1NC(=O)N([C@H]2C=C[C@@H](CO)O2)C=C1C | C8166 | - | - | >50 µM
Nc1nc(=O)n([C@@H]2CS[C@H](CO)O2)cc1F | HT4 + HT4-6C | LAV-1 | - | 0.02 µM
Nc1ncnc2c1ncn2[C@H]1CC[C@@H](CO)O1 | CEM + CEM TK- | - | - | 0.43 µM
CC1=C\[C@@H](C)[C@@H](CC(C)C)OC(=O)/C(C)=C/C=C/C=C/CCC[C@@H](O)CC(=O)[C@H](C)[C@@H](O)CC[C@@H](C)C(=O)\C=C\1 | TZM-bl | LAI | - | 0.07 µM
COc1ccc(S(=O)(=O)N(CC(C)C)C[C@@H](O)[C@H](Cc2ccccc2)NC(=O)O[C@H]2CO[C@H]3OCC(F)(F)[C@H]32)cc1 | MT-4 | NL4-3 | L23I E34Q K43I M46I I50L G51A L63P A71V V82A T91A ATV resistant | 0.02 µM
Nc1ncnc2c1ncn2CCOCP(=O)(O)O | PBMC | LAI | - | 0.43 µM
Nc1nc(=O)n([C@@H]2CC[C@H](CO)O2)cc1F | CEM | - | - | 0.5 µM
O=C(O)CSc1ccc2c(c1)c(=O)c1ccccc1n2C1CC1 | PBMC | LAV | - | >100 µM
NCCCCN(Cc1nc2ccccc2[nH]1)C1CCCc2cccnc21 | MAGI | - | - | 0.0015 µM
O=c1oc(-c2ccccc2)cc(O)c1C(CC1CC1)SCc1ccccc1 | H9 | IIIB | - | 33 µM
Cc1cn([C@H]2C[C@H](N=[N+]=[N-])[C@@H](COC(=O)C(=O)N[C@H](C(=O)O)C(C)C)O2)c(=O)[nH]c1=O | PBMC | - | - | 0.015 µg/mL
Cc1ccnc2c1NC(=O)c1cccnc1N2C1CC1 | PBMC | IIIB | - | 0.034 µM
CCCC(=O)c1c(O)c(CC2(C)C(=O)C(C(=O)C(C)CC)=C(O)C(C)=C2O)c(O)c(C)c1OC | PBMC | LAV | - | 3.92 µM
Cc1cn([C@H]2C[C@H](N=[N+]=[N-])[C@@H](CO)O2)c(=O)[nH]c1=O | PBMC | LAI | - | 0.008 µM
Cc1cn([C@H]2C[C@H](N=[N+]=[N-])[C@@H](CO)O2)c(=O)[nH]c1=O | MT-4 | IIIB | - | 0.017 µM
CC(=O)Oc1c(OC(C)=O)c(C#N)c2c(OC(C)=O)c(-c3c(C)cc4c(C(C)C)c(OC(C)=O)c(OC(C)=O)c(C#N)c4c3OC(C)=O)c(C)cc2c1C(C)C | PBMC | LAV | - | 5 µM
OCCc1ccc(O)c(O[C@@H]2O[C@H](CO)[C@@H](O)[C@H](O)[C@H]2O)c1 | - | - | - | 3.25 µg/mL
CC(C)=CCN1Cc2cc(Cl)cc3[nH]c(=S)n(c23)C[C@@H]1C | CEM | - | - | <0.001 µM
O=C(Nc1ncc[nH]1)c1cccc(CN2C(=O)N(CC3CC3)[C@H](Cc3ccccc3)[C@H](O)[C@@H](O)[C@H]2Cc2ccccc2)c1 | MT-2 | RF | - | <0.028 µM
S=C(NCCc1ccccn1)Nc1ccc(Br)cn1 | PBMC | RT-MDR(RT-V106A) | RT-V106A | 0.02 µM
Nc1ncnc2c1ncn2CC(CF)OCP(=O)(O)O | Macrophage + Monocytes/macrophages | BaL | - | 0.95 µM
Cc1cn([C@H]2C[C@H](N=[N+]=[N-])[C@@H](CO)O2)c(=O)[nH]c1=O | PBMC | LAV | - | 0.004 µg/mL
Cc1ccnc2c1NC(=O)c1cccnc1N2C1CC1 | TZM-bl | LAI | - | 0.07 µM
S=C(NCCC1=CCCCC1)Nc1nc2ccccc2s1 | PBMC | IIIB | - | 0.02 µM
C[C@@H]1O[C@@H](O[C@@H]2[C@@H](O)[C@H](OCCc3ccc(O)c(O)c3)O[C@H](COC(=O)/C=C/c3ccc(O)c(O)c3)[C@H]2O)[C@H](O)[C@H](O)[C@H]1O | - | - | - | 5.29 µg/mL
C[C@@H](Cn1cnc2c(=O)[nH]c(N)nc21)OCP(=O)(O)O | - | - | - | 17 µM
Nc1nc(N)c2ncn(CCOCP(=O)(O)O)c2n1 | Macrophage + Monocytes/macrophages | BaL | - | 0.076 µM
Cc1ccnc2c1NC(=O)c1cccnc1N2C1CC1 | HT4 + HT4-6C | BI-RG587-resistant | - | 3.6 µM
CC(C)=CCN1Cc2cc(Cl)cc3[nH]c(=S)n(c23)C[C@@H]1C | MT-4 | IIIB | - | 0.042 µM
S=C(NCCC1=CCCCC1)Nc1ccc(Cl)cn1 | PBMC | IIIB | - | 0.003 µM
COC(=O)N[C@H](C(=O)N[C@@H](Cc1ccccc1)[C@@H](O)CN(Cc1ccc(-c2ccccn2)cc1)NC(=O)[C@@H](NC(=O)OC)C(C)(C)C)C(C)(C)C | MT-4 | NL4-3 | M46I I50V N38K M36I GRL05010-resistant | 0.095 µM
O=c1oc(-c2ccccc2)cc(O)c1C(CC1CC1)SC1CCCCC1 | H9 | IIIB | - | 25 µM
Nc1ncnc2c1ncn2[C@@H]1O[C@H](CO)C=C[C@@H]1F | - | - | - | >100 µg/mL
Cc1c(-c2c(C)c(=O)c3c(C(C)C)c(=O)c(=O)c(C=O)c-3c2=O)c(O)c2c(C=O)c(O)c(O)c(C(C)C)c2c1O | PBMC | LAV | - | 0.86 µM
Nc1nc(N)c2ncn([C@H]3CO[C@@H](CO)O3)c2n1 | MT-4 | IIIB | - | 0.95 µM
Cc1cc(SC2=C(O)C[C@@](CCc3ccc(N)cc3)(C(C)C)OC2=O)c(C(C)(C)C)cc1CO | PBMC | - | - | 0.2–0.5 µM
C#C[C@]1(CO)O[C@@H](n2ccc(N)nc2=O)[C@@H](O)[C@@H]1O | - | - | - | 0.0115 µg/mL
NC1=CS(=O)(=O)OC12C1CC3CC(C1)CC2C3 | - | - | - | >200 µg/mL
CC(C)=CCN1Cc2cc(Cl)cc3[nH]c(=S)n(c23)C[C@@H]1C | MT-4 | - | RT-D67N K70R T215Y K219Q | <0.4 µM
O=c1oc(-c2ccccc2)cc(O)c1C(SCc1ccccc1)c1ccccc1 | H9 | IIIB | - | 16 µM
CC(C)CN(C[C@@H](O)[C@H](Cc1ccccc1)NC(=O)O[C@H]1CO[C@H]2OCC(F)(F)[C@H]21)S(=O)(=O)c1ccc(N)cc1 | MT-4 | NL4-3 | A28S L33F V82I GRL04810-resistant | 0.039 µM
Cc1ccc(-c2ccc3c(c2)C=C(C(=O)Nc2ccc(C[N+](C)(C)C4CCOCC4)cc2)CCC3)cc1 | PBMC | Clinical isolate RM | - | 0.05 µg/mL
O=C(O)C(=O)CC(=O)c1cccn1Cc1ccc(-c2ccccc2)cc1 | - | - | - | >50 µM
COc1c(OC)c2c3c(c(-c4c(C)cc5c(C(C)C)c(OC)c(OC)c6c5c4OC6=O)c(C)cc3c1C(C)C)OC2=O | PBMC | LAV | - | >100 µM
Cc1cn([C@H]2C=C[C@@H](COP(=O)(SCCOC(=O)C(C)(C)C)SCCOC(=O)C(C)(C)C)O2)c(=O)[nH]c1=O | CEM + CEM TK- | - | - | 0.0059 µM
OCCc1ccc(O)c(O)c1 | - | - | - | 16.5 µg/mL
CC(C)=CCC/C(C)=C/CC/C(C)=C/Cc1c(O)cc(C)c(C(=O)O)c1O | MT-4 | - | - | >40 µM
CCCCC#CCSc1ccccc1OC(C)=O | MT-2 | 3096 multinucleoside RES | - | 4 µM

For reference, 5 entries again:

SMILES	cells	strain	mutations	result
Cc1cn([C@H]2C=C[C@@H](COP(=O)(SCCOC(=O)C(C)(C)C)SCCOC(=O)C(C)(C)C)O2)c(=O)[nH]c1=O	CEM + CEM TK-	-	-	0.0059 µM
Cc1ccnc2c1NC(=O)c1cccnc1N2C1CC1	HT4 + HT4-6C	BI-RG587-resistant	-	3.6 µM
O=C(O)CSc1ccc2c(c1)c(=O)c1ccccc1n2C1CC1	PBMC	LAV	-	>100 µM
COC(=O)N[C@H](C(=O)N[C@@H](Cc1ccccc1)[C@@H](O)CN(Cc1ccc(-c2ccccn2)cc1)NC(=O)[C@@H](NC(=O)OC)C(C)(C)C)C(C)(C)C	MT-4	NL4-3	M46I I50V N38K M36I GRL05010-resistant	0.095 µM
CC(C)=CCN1Cc2cc(Cl)cc3[nH]c(=S)n(c23)C[C@@H]1C	CEM	-	-	<0.001 µM